# Measurements published in US20250268857A1 (priority 2020, published 2025).
# Tests used:
# [1] = system: E. coli O157 (ATCC43888)
# [2] = system: Pseudomonas aeruginosa(NBRC3080)
# [3] = system: Staphylococcus aureus (NBRC12732)
# [4] = system: Klebsiella pneumoniae (ATCC4352)
# [5] = system: E. coli (NBRC3972)
substance,measurement,setting,value
zinc gluconate,Minimum Inhibitory Concentration,[1],1600 ppm
same,Minimum Inhibitory Concentration,[2],1600 ppm
same,Minimum Inhibitory Concentration,[3],200 ppm
same,Minimum Inhibitory Concentration,[4],400 ppm
same,Minimum Inhibitory Concentration,[5],200 ppm
